A mixed list of measured activities; the numbers were collected in NIAID ChemDB.

Common to all: target-level tests

ICn is the concentration giving n% inhibition. Percent inhibition refers to the dose given; in toxicity tests it is the harm to the cells. Neighbouring rows are from separate reports. a–b is a range or a potency band.

O=C(Nc1ccc2[nH]ncc2c1)c1cc(NCc2ccccn2)c(F)cc1F ; read-out: inhibition ; dose: 0.01 µg/mL ; protein: Reverse transcriptase ; species: Hepatitis B virus ; result: 31%
Cc1cc(C)cc(SCc2ccc(-c3nc(C(=O)O)c(O)c(=O)[nH]3)cc2)c1 ; read-out: IC50 ; protein: HCV polymerase ; species: Hepatitis C virus ; result: <100 µM
Cc1coc(/C=C2/SC(=S)NC2=O)c1C ; read-out: IC50 ; protein: NS5B polymerase ; species: Hepatitis C virus ; result: ≤30 µM
CC1CCCC(C(=O)N(c2cc(-c3ccccc3)sc2C(=O)O)C(C)C)C1 ; read-out: IC50 ; protein: NS3 ATPase ; species: Hepatitis C virus ; result: >20 µM
C=C[C@@H]1C[C@]1(NC(=O)[C@@H]1C[C@@H](Oc2nccc3ccc(Br)cc23)CN1C(C)=O)C(=O)NS(=O)(=O)C1CC1 ; read-out: IC50 ; protein: Nonstructural protein 3/4A ; method: FRET ; species: Hepatitis C virus ; strain or isolate: 1b A156T ; result: >3 µM
CC1CCC(C(=O)N(CC2CCN(C(=O)OCc3ccccc3)CC2)c2cc(-c3ccccc3)sc2C(=O)O)CC1 ; read-out: IC50 ; protein: NS3 ATPase ; species: Hepatitis C virus ; result: <5 µM
O=C(Cc1cccs1)Nc1cccc(-c2nc(C(=O)O)c(O)c(=O)[nH]2)c1 ; read-out: IC50 ; protein: HCV polymerase ; species: Hepatitis C virus ; result: <100 µM
O=C(Nc1ccc2cn[nH]c2c1)c1cc(N2CCC(O)CC2)c(F)cc1F ; read-out: inhibition ; dose: 1 µg/mL ; protein: Nonstructural protein 5B ; species: Hepatitis C virus ; result: 55%
O=C(O)c1nc(-c2sccc2NS(=O)(=O)c2cc(Cl)c(Cl)cc2Cl)[nH]c(=O)c1O ; read-out: IC50 ; protein: HCV polymerase ; species: Hepatitis C virus ; result: <25 µM
O=C(O)c1sc(-c2ccccc2)cc1NS(=O)(=O)c1cccc(F)c1 ; read-out: IC50 ; protein: NS3 ATPase ; species: Hepatitis C virus ; result: <5 µM
NCc1cccc(COC(=O)Nc2ccsc2-c2nc(C(=O)O)c(O)c(=O)[nH]2)c1 ; read-out: IC50 ; protein: HCV polymerase ; species: Hepatitis C virus ; result: <25 µM
C=CCCC(=O)N(C)c1cc(-c2ccccc2)sc1C(=O)O ; read-out: IC50 ; protein: NS3 ATPase ; species: Hepatitis C virus ; result: 5–20 µM
O=C(NCc1ccccc1Cl)Nc1ccsc1-c1nc(C(=O)O)c(O)c(=O)[nH]1 ; read-out: IC50 ; protein: HCV polymerase ; species: Hepatitis C virus ; result: <25 µM
O=C(Nc1ccc2cn[nH]c2c1)c1cc(N2CCNCC2)c(F)cc1F ; read-out: inhibition ; dose: 1 µg/mL ; protein: Reverse transcriptase ; species: Hepatitis B virus ; result: 56%
O=C1/C(=C\c2ccc(Cl)cc2)SC(=S)N1NS(=O)(=O)c1ccccc1 ; read-out: IC50 ; protein: NS5B polymerase ; species: Hepatitis C virus ; result: ≤30 µM
O=C(Nc1ccsc1-c1nc(C(=O)O)c(O)c(=O)[nH]1)OCCc1c[nH]c2ccccc12 ; read-out: IC50 ; protein: HCV polymerase ; species: Hepatitis C virus ; result: <25 µM
Cc1ccccc1S(=O)(=O)Nc1cc(-c2cccc3cccnc23)sc1C(=O)O ; read-out: IC50 ; protein: NS3 ATPase ; species: Hepatitis C virus ; result: >20 µM
O=C(Nc1ccc2[nH]ncc2c1)c1cc(N2CCNCC2)c(F)cc1F ; read-out: inhibition ; dose: 0.1 µg/mL ; protein: Nonstructural protein 5B ; species: Hepatitis C virus ; result: 20%
CC(OC(=O)OC1CCCCC1)OC(=O)c1nc(-c2sccc2NC(=O)NCc2ccccc2Cl)[nH]c(=O)c1O ; read-out: IC50 ; protein: HCV polymerase ; species: Hepatitis C virus ; result: <50 µM
Cc1cc(S(=O)(=O)Nc2cc(-c3ccc(Cl)cc3)sc2C(=O)O)c(C)cc1Cl ; read-out: IC50 ; protein: NS3 ATPase ; species: Hepatitis C virus ; result: <5 µM
O=C(O)c1cccc(-c2nc(C(=O)O)c(O)c(=O)[nH]2)c1 ; read-out: IC50 ; protein: HCV polymerase ; species: Hepatitis C virus ; result: <100 µM
O=C1/C(=C\c2ccc[nH]2)SC(=S)N1NS(=O)(=O)c1ccccc1 ; read-out: IC50 ; protein: NS5B polymerase ; species: Hepatitis C virus ; result: >30 µM
CN1CCN(c2cc(C(=O)Nc3ccc4[nH]ncc4c3)c(F)cc2F)CC1 ; read-out: inhibition ; dose: 1 µg/mL ; protein: Reverse transcriptase ; species: Hepatitis B virus ; result: 68%
O=C(O)c1nc(-c2ccco2)[nH]c(=O)c1O ; read-out: IC50 ; protein: HCV polymerase ; species: Hepatitis C virus ; result: <100 µM
O=C(Nc1ccc2[nH]ncc2c1)c1cc(N2CCC(O)CC2)c(F)cc1F ; read-out: inhibition ; dose: 1 µg/mL ; protein: Nonstructural protein 5B ; species: Hepatitis C virus ; result: 63%
O=C1/C(=C\c2cccc(Cl)c2)SC(=S)N1NS(=O)(=O)c1ccccc1 ; read-out: IC50 ; protein: NS5B polymerase ; species: Hepatitis C virus ; result: ≤30 µM
COc1ccccc1-c1cc(NS(=O)(=O)c2ccccc2C)c(C(=O)O)s1 ; read-out: IC50 ; protein: NS3 ATPase ; species: Hepatitis C virus ; result: 5–20 µM
O=C(Nc1ccc2[nH]ncc2c1)c1cc(N2CCN(CCO)CC2)c(F)cc1F ; read-out: inhibition ; dose: 10 µg/mL ; protein: Nonstructural protein 5B ; species: Hepatitis C virus ; result: 51%
CC1CCC(C(=O)N(c2cc(-c3ccccc3)sc2C(=O)O)C(C)C)C1 ; read-out: IC50 ; protein: NS3 ATPase ; species: Hepatitis C virus ; result: 5–20 µM
CN1CCN(c2cc(C(=O)Nc3ccc4cn[nH]c4c3)c(F)cc2F)CC1 ; read-out: inhibition ; dose: 1 µg/mL ; protein: Nonstructural protein 5B ; species: Hepatitis C virus ; result: 23%

A second listing of 2 rows from above:

O=C(O)c1nc(-c2ccco2)[nH]c(=O)c1O ; read-out: IC50 ; protein: HCV polymerase ; species: Hepatitis C virus ; result: <100 µM
O=C(Nc1ccc2[nH]ncc2c1)c1cc(NCc2ccccn2)c(F)cc1F ; read-out: inhibition ; dose: 0.01 µg/mL ; protein: Reverse transcriptase ; species: Hepatitis B virus ; result: 31%